PSTVd loop 15 mutant pool in Nicotiana benthamiana

The measurements come from Wu et al. 2024 (doi:10.1371/journal.ppat.1012142).

The pool varies loop 15 of the PSTVd intermediate strain in the pattern GGAAACCGNNNNNNC; wild type is GGAAACCGCUACUAC (upper and lower strand joined, each 5' to 3', the first 7 letters being the upper strand, closing pairs included).

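Three N. benthamiana plants were inoculated with the whole mutant pool. Samples came from the inoculated region at 5 days, the leaf margin at 10 and upper systemic leaves at 12.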

Values are reads per thousand in the sample; higher means more abundant, 0 means not found.
Each value is the mean of three plants.
"Pool" is the share in the plasmid pool used as inoculum, on the same scale.
The inoculated region was read from the minus strand, the other sites from the plus strand.

With GGAAACCGCUGCGAC (pool 0.176) the assay gave inoculated region 0.0751; leaf margin 0.0134; systemic leaves 0. GGAAACCGCGUACUC (pool 0.160) read inoculated region 0.153; leaf margin 0.0121; systemic leaves 0. GGAAACCGUACUAGC (pool 0.208) read inoculated region 0.0840; leaf margin 0.00539; systemic leaves 0.0107. With GGAAACCGUAGCUUC (pool 0.272) the assay gave inoculated region 0.308; leaf margin 0.158; systemic leaves 0.00537. With GGAAACCGACAUUAC (pool 0.160) the assay gave inoculated region 0.766; leaf margin 0.131; systemic leaves 0.0642. GGAAACCGAGUCUUC (pool 0.176) gave inoculated region 0.126; leaf margin 0; systemic leaves 0.00537. For GGAAACCGCGCAGUC (pool 0.240) the result was inoculated region 0.103; leaf margin 0.0269; systemic leaves 0.

GGAAACCGGACGACC (pool 0.224) read inoculated region 0.113; leaf margin 0.0182; systemic leaves 0. With GGAAACCGUUAUUCC (pool 0.0960) the assay gave inoculated region 0.309; leaf margin 0.110; systemic leaves 0.0825. With GGAAACCGCAGGAGC (pool 0.240) the assay gave inoculated region 0.191; leaf margin 0.0128; systemic leaves 0.00537. For GGAAACCGACGUUGC (pool 0.288) the result was inoculated region 0.146; leaf margin 0.00668; systemic leaves 0. GGAAACCGUCCCAAC (pool 0.144) gave inoculated region 0.0857; leaf margin 0; systemic leaves 0. GGAAACCGGUGGCUC (pool 0.224) gave inoculated region 0.0839; leaf margin 0; systemic leaves 0.00537. GGAAACCGAUGAAAC (pool 0.240) gave inoculated region 0.0795; leaf margin 0.0134; systemic leaves 0.

GGAAACCGCAUAGGC (pool 0.144) read inoculated region 0.0578; leaf margin 0.0128; systemic leaves 0. GGAAACCGGUACGGC (pool 0.336) read inoculated region 0.0870; leaf margin 0.00668; systemic leaves 0. With GGAAACCGCUACUAA (pool 0.208) the assay gave inoculated region 0.504; leaf margin 0.758; systemic leaves 0.206. With GGAAACCGUGGCAGC (pool 0.240) the assay gave inoculated region 0.115; leaf margin 0.00668; systemic leaves 0. For GGAAACCGGUCGGAC (pool 0.256) the result was inoculated region 0.119; leaf margin 0.00668; systemic leaves 0.00537. With GGAAACCGUAUAGUC (pool 0.192) the assay gave inoculated region 0.102; leaf margin 0.00742; systemic leaves 0. With GGAAACCGGGAGGCC (pool 0.288) the assay gave inoculated region 0.120; leaf margin 0.0241; systemic leaves 0.

With GGAAACCGAGCUAAC (pool 0.192) the assay gave inoculated region 0.102; leaf margin 0.0141; systemic leaves 0.00537. GGAAACCGUCGGUGC (pool 0.288) gave inoculated region 0.337; leaf margin 0.109; systemic leaves 0.0107. GGAAACCGGUCUCCC (pool 0.240) read inoculated region 0.0560; leaf margin 0; systemic leaves 0.00537. For GGAAACCGAGCGGAC (pool 0.144) the result was inoculated region 0.0983; leaf margin 0.00668; systemic leaves 0.00537.

2 of these entries, quoted again:

- GGAAACCGCGUACUC (pool 0.160) -> inoculated region 0.153; leaf margin 0.0121; systemic leaves 0
- GGAAACCGAGCGGAC (pool 0.144) -> inoculated region 0.0983; leaf margin 0.00668; systemic leaves 0.00537

Wild type was 33.9 per thousand in the pool and the most common sequence in every sample (inoculated region 202, 200, 159; leaf margin 724, 746, 710; systemic leaves 856, 883, 880).
With 43,870-66,106 reads a sample, very low values are single reads.
Sequences that differ at fixed positions probably stem from PCR or sequencing errors, and defective variants can be carried along by functional ones.